In assay [1] the target is HIV-1 Env Q461.e2 (HIV-1 (clade A)).
In assay [2] the target is HIV-1 A/G recombinant Env CRF02_AG-235 (HIV-1 (A/G recombinant)).
The target in assay [3] is HIV-1 clade C Env 4.J2 (HIV-1 (clade C)).
The target in assay [4] is HIV-1 Env TND_L669 (HIV-1 (clade B)).
The target of assay [5] is HIV-1 clade A Env Q259ENVd2.17 (HIV-1 (clade A)).
Assay [6] deals with HIV-1 clade C Env 2-3.J7 (HIV-1 (clade C)).
In assay [7] the target is HIV-1 clade C Env 4.J22 (HIV-1 (clade C)).

A value given as a limit tells only on which side of the number the result lay.

Turning to “soluble CD4 (from UniProt P01730 26-396) (receptor)”, the IC50 of neutralisation of Env-pseudotyped virus by sCD4 in TZM-bl cells (luciferase); control Env tested in parallel is greater than 25 µg/mL in assay [1] and 10 µg/mL in assay [4]. Moreover, the IC50 of neutralisation of Env-pseudotyped virus by sCD4 in TZM-bl cells (luciferase); sCD4 interferes with the Env-CD4 interaction in assay [2] is greater than 25 µg/mL; in assay [3], 0.625 µg/mL; in assay [5], greater than 25 µg/mL; in assay [6], greater than 25 µg/mL. The substance further returned a neutralisation of Env-pseudotyped virus by sCD4 in TZM-bl cells in assay [7] greater than 25 µg/mL.

Source of the values: paper PMC3351407.
